A mixed list of measured activities; the numbers were collected in NIAID ChemDB.

Common to all: growth or infection tests; organism: Mycobacterium fortuitum

A number after MIC or MFC names an inhibition level or a share of isolates. Blank or dashed fields: not listed here. Inhibition is in % at the dose shown (toxicity tests: loss of growth or viability). Lines come from different laboratories, so protocols vary.

compound,dose,measure,strain or isolate,read by,result
CO[C@@]1(NC(=O)Cn2cnnn2)C(=O)N2C(C(=O)O)=C(CSc3nnc(C)s3)CSC21,,MIC,1004-8,,>100 µg/mL
CN[C@@H]1[C@H](O[C@H]2[C@H](O[C@H]3[C@H](O)[C@@H](O)[C@H](N=C(N)N)[C@@H](O)[C@@H]3N=C(N)N)O[C@@H](C)[C@]2(O)C=O)O[C@@H](CO)[C@H](O)[C@H]1O,,MBC90,31 isolates,,>64 µg/mL
CC(C)N=c1cc2n(-c3ccc(Cl)cc3)c3ccccc3nc-2cc1Nc1ccc(Cl)cc1,,MIC,6841 ATCC,,13.3 µg/mL
CCc1cc(C(N)=S)ccn1,5 µg/mL,inhibition,198 strains,agar,<1%
CO[C@@]1(NC(=O)CCCC(N)C(=O)O)C(=O)N2C(C(=O)O)=C(COC(N)=O)CSC21,,MIC,914-8,,100 µg/mL
NCC[C@H](O)C(=O)N[C@@H]1C[C@H](N)[C@@H](O[C@H]2O[C@H](CN)[C@@H](O)[C@H](O)[C@H]2O)[C@H](O)[C@H]1O[C@H]1O[C@H](CO)[C@@H](O)[C@H](N)[C@H]1O,,MBC,ATCC 6841,,>64 µg/mL
C[C@@H](O)[C@H]1C(=O)N2C(C(=O)O)=C(SCCN=CN)C[C@H]12,,MIC,1049,,6.25 µg/mL
NC[C@@H]1O[C@H](O[C@H]2[C@@H](O)[C@H](O[C@@H]3[C@@H](O)[C@H](N)C[C@H](N)[C@H]3O[C@H]3O[C@H](CN)[C@@H](O)[C@H](O)[C@H]3N)O[C@@H]2CO)[C@H](N)[C@@H](O)[C@@H]1O,,MBC90,31 isolates,,>64 µg/mL
C[C@H]1C[C@H](N)CN1c1cc2c(cc1F)c(=O)c(C(=O)O)cn2-c1ccc(F)cc1F,,MBC,ATCC 6841,,8 µg/mL
C[C@@H]1CN(c2c(F)c(N)c3c(=O)c(C(=O)O)cn(C4CC4)c3c2F)C[C@H](C)N1,,MIC50,20 strains,,1.56 µg/mL
C[C@H]1COc2c(N3CCN(C)CC3)c(F)cc3c(=O)c(C(=O)O)cn1c23,,MIC50,25 isolates,,2 µg/mL
CC(C)N=c1cc2n(-c3ccc(Cl)cc3)c3ccccc3nc-2cc1Nc1ccc(Cl)cc1,,MIC50,,broth dilution,≤0.5 µg/mL
CO[C@@]1(NC(=O)Cc2ccccc2)C(=O)N2C(C(=O)O)=C(COC(C)=O)CSC21,,MIC,1260,,50 µg/mL
C[C@@H]1CN(c2c(F)c(N)c3c(=O)c(C(=O)O)cn(C4CC4)c3c2F)C[C@H](C)N1,,MIC50,25 isolates,,0.5 µg/mL
CO[C@@]1(NC(=O)CSCC#N)C(=O)N2C(C(=O)O)=C(CSc3nnnn3C)CS[C@@H]21,,MIC,1048,,6.25 µg/mL
CC[C@H]1OC(=O)[C@H](C)[C@@H](O[C@H]2C[C@@](C)(OC)[C@@H](O)[C@H](C)O2)[C@H](C)[C@@H](O[C@@H]2O[C@H](C)C[C@H](N(C)C)[C@H]2O)[C@](C)(O)C[C@@H](C)CN(C)[C@H](C)[C@@H](O)[C@]1(C)O,,MBC,ATCC 6841,,>8 µg/mL

Repeating the final 2 entries:

compound | dose | measure | strain or isolate | read by | result
CO[C@@]1(NC(=O)CSCC#N)C(=O)N2C(C(=O)O)=C(CSc3nnnn3C)CS[C@@H]21 |  | MIC | 1048 |  | 6.25 µg/mL
CC[C@H]1OC(=O)[C@H](C)[C@@H](O[C@H]2C[C@@](C)(OC)[C@@H](O)[C@H](C)O2)[C@H](C)[C@@H](O[C@@H]2O[C@H](C)C[C@H](N(C)C)[C@H]2O)[C@](C)(O)C[C@@H](C)CN(C)[C@H](C)[C@@H](O)[C@]1(C)O |  | MBC | ATCC 6841 |  | >8 µg/mL